Anti-infective test results gathered from many reports (values: NIAID ChemDB through PubChem).

Common to all: whole-cell or culture tests; organism: Candida albicans; read-out: MIC

Two numbers with a dash give a range or band. Lines come from different laboratories, so protocols vary.

CN1CCC2=C(CCCC2CCc2ccc(F)cc2)C1 ; strain or isolate: 1208E ; result: 31 µg/mL
C[C@@]12CCC[C@]3(C)C4=CC(=O)OC[C@]45O[C@@H]5C(OC1=O)[C@@H]23 ; strain or isolate: 1463D ; result: 32 µg/mL
Cc1c(N2C[C@@H]3CCC[C@H](N)[C@H]3C2)c(F)cn2c(=O)c(C(=O)O)cc(C3CC3)c12.Cl ; strain or isolate: CCH442 ; result: 0.1 µg/mL
C=CC[n+]1c2ccccc2cc2[nH]c3ccccc3c21 ; strain or isolate: B311 ; result: 250 µg/mL
Clc1ccc(CCC2CCCc3cnccc32)cc1 ; strain or isolate: 2381E ; result: 8 µg/mL
C1CCC(C[C@@H]2CN=C3N2C[C@@H](C2CCCCC2)N3CCC23CC4CC(CC(C4)C2)C3)CC1 ; strain or isolate: ATCC 10231 ; result: 10–16 µg/mL
C[C@@H](c1nc(-c2ccc(C#N)cc2)cs1)[C@](O)(Cn1cnnc1)c1ccc(F)cc1F ; strain or isolate: Isogenic isolate 12 (25X) ; result: ≤0.008 µg/mL
CN1CCC2=C(CCCC2CCc2ccc(Br)cc2)C1 ; strain or isolate: 1208E ; result: 16 µg/mL
Cc1c(N2CCC[C@@H]2CN)c(F)cn2c(=O)c(C(=O)O)cc(C3CC3)c12 ; strain or isolate: CCH442 ; result: >100 µg/mL
CC(C)C[C@@H]1CN2C(=NC[C@H]2C2CCCCC2)N1CCC12CC3CC(CC(C3)C1)C2 ; strain or isolate: ATCC 10231 ; result: >64 µg/mL
CCCCC[n+]1c2ccccc2cc2[nH]c3ccccc3c21 ; strain or isolate: B311 ; result: 250 µg/mL
CC1=C(N2CCC3CC(N)CCC32)C(F)=CN2C(=O)C(C(=O)O)=CC(C3CC3)C12 ; strain or isolate: CCH442 ; result: <100 µg/mL
Cn1c2c3ccccc3nc-2cc2ccccc21 ; strain or isolate: B311 ; result: 250 µg/mL
CC(C)(C)C1CCC(CN2C3=NC[C@H](C4CCCCC4)N3C[C@@H]2CC2CCCCC2)CC1 ; strain or isolate: ATCC 10231 ; result: 10–16 µg/mL
CCC[C@H](N)C(=O)N[C@H]1CCN(c2c(F)cn3c(=O)c(C(=O)O)cc(C4CC4)c3c2C)C1.Cl ; strain or isolate: CCH442 ; result: >100 µg/mL
C1CCC([C@@H]2CN3C(=NC[C@H]3C3CCCCC3)N2CCC23CC4CC(CC(C4)C2)C3)CC1 ; strain or isolate: ATCC 10231 ; result: 32–64 µg/mL
COc1cc(O)c2c(c1)C(=O)c1c(cc3c(c1O)-c1c(cc(C)c(C(=O)NC(CO)C(=O)O)c1O)[C@H](OC1OC(C)C(O)C(OC4OCC(O)C(O)C4O)C1O)C3O)C2=O ; strain or isolate: Juntendo 83-2-14 ; result: 3.1 µg/mL
CCCCCCCCC[C@@H](O)[C@H](C)N ; strain or isolate: MTCC 183 ; result: 9.9 µM
CC1=C(N2C[C@@H]3CCCN[C@@H]3C2)C(F)=CN2C(=O)C(C(=O)O)=CC(C3CC3)C12 ; strain or isolate: CCH442 ; result: >100 µg/mL
CN1CCC2=C(CCCC2CCc2c(Cl)cccc2Cl)C1 ; strain or isolate: 2005E ; result: 16 µg/mL
c1ccc(CCCCC[n+]2c3ccccc3cc3[nH]c4ccccc4c32)cc1 ; strain or isolate: B311 ; result: 125 µg/mL
CN1CCC2=C(CCCC2CCc2ccccc2)C1 ; strain or isolate: 2381E ; result: 31 µg/mL
C1CCC(C[C@@H]2CN3C(=NC[C@@H]3C3CCCCC3)N2CCC23CC4CC(CC(C4)C2)C3)CC1 ; strain or isolate: ATCC 10231 ; result: 3–4 µg/mL
NC1CCN(c2c(F)cn3c(=O)c(C(=O)O)cc(C4CC4)c3c2Cl)C1.O=C(O)C(F)(F)F ; strain or isolate: CCH442 ; result: >100 µg/mL
CN1CCC2=C(CCCC2CCc2ccc(Cl)cc2)C1 ; strain or isolate: 2381E ; result: 4 µg/mL
c1ccc2c(c1)cc1[nH]c3ccccc3c1[n+]2CC1CCC1 ; strain or isolate: B311 ; result: 125 µg/mL
CC(C)(C)C1CCC(CN2C3=NC[C@H](C4CCCCC4)N3C[C@H]2CC2CCCCC2)CC1 ; strain or isolate: ATCC 10231 ; result: 5–8 µg/mL
c1ccc2nc3c(cc2c1)[nH]c1ccccc13 ; strain or isolate: B311 ; result: >250 µg/mL
CC1=C(N2CCCC(C3CCCCN3)C2)C(F)=CN2C(=O)C(C(=O)O)=CC(C3CC3)C12 ; strain or isolate: CCH442 ; result: <100 µg/mL
Clc1ccc(CCC2CCCc3cnccc32)cc1Cl ; strain or isolate: C316 ; result: >125 µg/mL
C1CCC([C@H]2CN=C3N2C[C@@H](C2CCCCC2)N3CCC23CC4CC(CC(C4)C2)C3)CC1 ; strain or isolate: ATCC 10231 ; result: 11–16 µg/mL
CC1=C(N2CC[C@H]([C@H](N)C(F)(F)F)C2)C(F)=CN2C(=O)C(C(=O)O)=CC(C3CC3)C12 ; strain or isolate: CCH442 ; result: >100 µg/mL
C[C@H]1[C@H](O)[C@@H](C)/C=C/C=C/C=C/C=C/C=C/C=C/C=C/[C@H](O[C@@H]2O[C@H](C)[C@@H](O)[C@H](N)[C@@H]2O)C[C@@H]2O[C@](O)(C[C@@H](O)C[C@@H](O)CC[C@H](O)[C@@H](O)C[C@@H](O)CC(=O)O[C@H]1C)C[C@H](O)[C@H]2C(=O)O ; strain or isolate: ATCC 90028 ; result: 0.0125 µg/mL
C[C@@]12CCC[C@]3(C)C4=CC(=O)OC(O)[C@]45O[C@@H]5C(OC1=O)[C@@H]23 ; strain or isolate: 1463D ; result: >64 µg/mL
C1CCC(C[C@H]2CN=C3N2C[C@@H](C2CCCCC2)N3CCC23CC4CC(CC(C4)C2)C3)CC1 ; strain or isolate: ATCC 10231 ; result: 10–16 µg/mL
CN1CCC2=C(CCCC2CCc2ccccc2Cl)C1 ; strain or isolate: 1208E ; result: 62 µg/mL
Cc1c(N2CCC3CNCC32)c(F)cn2c(=O)c(C(=O)O)cc(C3CC3)c12 ; strain or isolate: CCH442 ; result: >100 µg/mL

Repeating the final 5 entries:

SMILES | strain or isolate | result
C[C@H]1[C@H](O)[C@@H](C)/C=C/C=C/C=C/C=C/C=C/C=C/C=C/[C@H](O[C@@H]2O[C@H](C)[C@@H](O)[C@H](N)[C@@H]2O)C[C@@H]2O[C@](O)(C[C@@H](O)C[C@@H](O)CC[C@H](O)[C@@H](O)C[C@@H](O)CC(=O)O[C@H]1C)C[C@H](O)[C@H]2C(=O)O | ATCC 90028 | 0.0125 µg/mL
C[C@@]12CCC[C@]3(C)C4=CC(=O)OC(O)[C@]45O[C@@H]5C(OC1=O)[C@@H]23 | 1463D | >64 µg/mL
C1CCC(C[C@H]2CN=C3N2C[C@@H](C2CCCCC2)N3CCC23CC4CC(CC(C4)C2)C3)CC1 | ATCC 10231 | 10–16 µg/mL
CN1CCC2=C(CCCC2CCc2ccccc2Cl)C1 | 1208E | 62 µg/mL
Cc1c(N2CCC3CNCC32)c(F)cn2c(=O)c(C(=O)O)cc(C3CC3)c12 | CCH442 | >100 µg/mL